Biological target: SARS-CoV-2 (antigen of the ELISA of FIG. 5E)
Assay: ELISA on SARS-CoV-2 antigen (spike or RBD not stated), OD 450

B1: R4C1 chimeric bovine-human IgG1 (ultralong CDR3) (antibody)
VH: QVQLRESGPSLVKPSQTLSLTCTASGFSLSDKAVGWVRQAPGKPLEWLGSIDTAENTGYNPGLKSRLSITKDNSKSQVSLSVSSVTTEDSATYYCATVHQKTRKEKNCPDGYIYSSNTASGYDCGVWICRRVGSAFCSRTGDYTSPSEFDIYEFYVEGWGQGLLVTVSS
VL: QAVLNQPSSVSGSLGQRVSITCSGSSSNVGNGYVSWYQLIPGSAPRTLIYGDTSRASGVPDRFSGSRSGNTATLTISSLQAEDEADYFCASAEDSSSNAVFGSGTTLTVL
notes: also called R4C1 (IgG)
  EC50 (read off the curve): ~0.03 nM

Reference: patent US20260184766A1, “FUSION POLYPEPTIDES AND BINDING PEPTIDES AND METHODS FOR PRODUCING AND USING SAME” (APPLIED BIOMEDICAL SCIENCE INSTITUTE, published 2026)
